Compound potency records, mixed from different reports. Data source: NIAID ChemDB in PubChem.

Common to all: growth or infection tests; organism: HIV-1; cells: C8166; read-out: EC50

ECn: concentration that inhibits the pathogen or its effect by n%.

smiles,strain or isolate,changes,read by,result
CCC(=O)c1cn(S(=O)(=O)c2ccc(CC)cc2)c2ccc(C#N)cc12,IIIB,,syncytia / visual reading,59.1 µg/mL
COc1cc2c(c(O)c1OC)-c1c(cc(OC)c(OC)c1O)C[C@H](C)[C@H](C)C2,IIIB,,p24,47.5 µM
CCN1c2ncc(CCOc3ccc(-c4ccc(C(=O)O)s4)cc3C)cc2C(=O)N(C)c2cccnc21,,RT-K103N Y181C,p24,0.01–0.05 µM
CCCC(C(=O)O)c1c(C)nc2ccc(Cl)cc2c1-c1ccc(Cl)cc1,,,luciferase / reporter gene,<20 µM
CCN1c2ncc(CCOc3ccc(NC(=O)Nc4ccc(C(=O)O)cc4)cc3C)cc2C(=O)N(C)c2cccnc21,,RT-K103N Y181C,p24,>0.05 µM
Cc1cc(OCCCN(C)C)ccc1NC(=O)Cc1ccc(Cl)cc1C(=O)c1ccccc1,RF,,syncytia,0.0344 µM
CCN1c2ncc(CSc3cc(C)nc(C)c3)cc2C(=O)Nc2c(C)ccnc21,WILD TYPE,,p24,0.00046 µM
O=C(O)CCC(=O)NCCCC[C@H](NC(=O)OCc1ccccc1)C(=O)N[C@@H](CCCCNC(=O)CCC(=O)O)C(=O)OCc1ccccc1,IIIB,,p24,>250 µM
CCc1ccc(-c2c(C(OC(C)(CF)CF)C(=O)O)c(C)nc3ccc(Cl)cc23)cc1,,,luciferase / reporter gene,<20 µM
CCN1c2ncc(CCOc3ccc(Nc4ccc(C(=O)O)cc4)cc3C)cc2C(=O)N(C)c2cccnc21,,RT-K103N Y181C,p24,0.01–0.05 µM
CCN1c2ncc(CCOc3ccc4cc(C(=O)NC(C)(C)C(=O)O)ccc4c3)cc2C(=O)N(C)c2cccnc21,WT,,p24,<0.1 µM
Cc1nc2ccc(Cl)cc2c(-c2ccc3cc[nH]c3c2)c1C(OC(C)C)C(=O)O,,,luciferase / reporter gene,<20 µM
CCC(=O)c1cn(S(=O)(=O)c2ccc(OC)cc2)c2ccccc12,IIIB,,syncytia / visual reading,0.8 µg/mL
O=C(N[C@@H](CCCCNC(=O)c1c(O)cccc1C(=O)O)C(=O)OCc1ccccc1)OCc1ccccc1,IIIB,,p24,>500 µM
Cc1nc2ccc(Cl)cc2c(-c2cnc3ccccc3c2)c1C(OC(C)C)C(=O)O,,,luciferase / reporter gene,<20 µM
CCN1c2ncc(CCOc3ccc(C(=O)O)c4c3CCN(C(=O)OC(C)(C)C)C4)cc2C(=O)N(C)c2cccnc21,WT,,p24,<0.1 µM
CCN(CC)CCOc1ccc(NC(=O)COc2ccccc2C(=O)c2ccccc2)cc1,RF,,p24,0.0033 µM
C=C(C)[C@@]12OC3(c4ccccc4)O[C@@H]1[C@@H]1[C@H](O)[C@@](C)(O)[C@@H](OC(C)=O)[C@@]4(O)[C@@H](C[C@H](C)[C@@H]4O)[C@@]1(O3)[C@H](C)[C@@H]2OC(=O)c1ccccc1,,,MTT,0.13 µg/mL
O=C(O)CCC(=O)NCCCC[C@H](NC(=O)OCc1ccccc1)C(=O)NCCCCCC(=O)N[C@@H](CCCCNC(=O)CCC(=O)O)C(=O)OCc1ccccc1,IIIB,,p24,100 µM
CCN1c2ncc(CCOc3ccc(C(C)CC(=O)O)c4ccccc34)cc2C(=O)N(C)c2cccnc21,WT,,p24,<0.1 µM
O=C(COc1ccc(F)cc1C(=O)c1ccccc1)Nc1ccccc1,RF,,p24,0.0171 µM
CCC(=O)c1cn(S(=O)(=O)c2ccc(OC)cc2)c2cc(C)ccc12,IIIB,,syncytia / visual reading,65 µg/mL
N#Cc1ccc2c(c1)c(/C=N/NC(=O)c1ccccc1)cn2S(=O)(=O)c1cccc([N+](=O)[O-])c1,IIIB,,syncytia / visual reading,3.13 µg/mL
CN(Cc1nc2ccccc2[nH]1)Cc1ncccc1CCCNC(=O)OC(C)(C)C,IIIB,,syncytia,3.821 µM
C/C(=N\NC(=O)c1ccccc1)c1cn(S(=O)(=O)c2ccc(C)cc2)c2cc(C)ccc12,IIIB,,syncytia / visual reading,1.65 µg/mL
CCC(=O)c1cn(S(=O)(=O)c2cccc([N+](=O)[O-])c2)c2ccc(C#N)cc12,IIIB,,syncytia / visual reading,>200 µg/mL
O=C(/C=C/c1ccc(O)cc1)OC[C@@H]1OC(Oc2ccc(C(=O)/C=C/c3ccc(O)c(O)c3)c(O)c2O)[C@@H](O)[C@H](O)[C@H]1O,MN,,cytopathic effect / XTT,50 µM
CCN1c2ncc(CSc3cc(C)nc(C)c3)cc2C(=O)Nc2c(C)cc(F)nc21,WILD TYPE,,p24,0.001 µM
CCN1c2ncc(CCOc3ccc(CC(=O)NN)c4ccccc34)cc2C(=O)N(C)c2cccnc21,WT,,p24,<0.1 µM
CCOC(=O)c1nnsc1Nc1ccccc1Nc1snnc1C(=O)OCC,NL4.3/AMD3100R,,p24,8 µM
O=C(COc1ccc(Cl)cc1C(=O)c1ccccc1)Nc1ccccc1,RF,,syncytia,0.0005 µM
CN(Cc1nc2ccccc2[nH]1)Cc1ncccc1CCC(N)=O,IIIB,,syncytia,19.1 µM
COc1ccc(-c2c(C(OC)C(=O)O)c(C)nc3ccc(Cl)cc23)cc1,,,luciferase / reporter gene,<20 µM
Cc1cn([C@H]2C[C@H](N=[N+]=[N-])[C@@H](CO)O2)c(=O)[nH]c1=O,,,cytopathic effect,0.00951 µM
CN(Cc1nc2ccccc2[nH]1)Cc1ncccc1CCCNC(=O)N(C)C,IIIB,,syncytia,9.386 µM
CCN1c2ncc(CCOc3ccc4cc(CC(=O)O)ccc4c3C)cc2C(=O)N(C)c2cccnc21,,RT-V106A,p24,0.1–1 µM
CCN1c2ncc(CCOc3ccc(NC(=O)c4ccc(C(=O)O)cc4)cc3C)cc2C(=O)N(C)c2cccnc21,IIIB,,p24,0.01–0.05 µM
CC1=C[C@@H]([C@H]2Oc3cc4c(c5c3[C@H](CC5)[C@@H]2C)CC[C@H]2C(C)(C)O[C@@H]3CC(=O)O[C@@]32C4)OC1=O,IIIB,,syncytia,~24 µg/mL
C/C(=N\NC(=O)c1ccccc1)c1cn(S(=O)(=O)c2ccccc2)c2ccc([N+](=O)[O-])cc12,IIIB,,syncytia / visual reading,0.5 µg/mL
C=C(C)[C@@]12OC3(C)O[C@@H]1[C@@H]1[C@H](O)[C@@](C)(O)[C@@H](O)[C@@]4(O)[C@@H](C=C(C)[C@@H]4OC(C)=O)[C@@]1(O3)[C@H](C)[C@@H]2OC(=O)c1ccccc1,,,MTT,9.93 µg/mL
CN(Cc1ncccc1CCC#N)Cc1nc2ccccc2n1C(=O)OC(C)(C)C,IIIB,,syncytia,14 µM
CCN1c2ncc(CCOc3ccc(C(=O)O)c4c3CCC4)cc2C(=O)N(C)c2cccnc21,WT,,p24,<0.1 µM
CN(CCS(=O)(=O)O)C(=N)N,IIIB,,syncytia,29 µg/mL
CN(C)CCCc1cccnc1CN(C)Cc1nc2ccccc2[nH]1,IIIB,,syncytia,9.247 µM
C/C(=N\NC(=O)c1ccccc1)c1cn(S(=O)(=O)c2ccc(C)cc2)c2ccc([N+](=O)[O-])cc12,IIIB,,syncytia / visual reading,2.55 µg/mL
C[C@@H](C(=O)O)[C@@H]1CC[C@]2(C)[C@@H]3CC[C@H]([C@](C)(O)CO)[C@]4(CCC(=O)O4)C[C@@H]3CC[C@@]12C,,,cytopathic effect,20.69 µg/mL
CCN1c2ncc(CCOc3ccc(-c4ccc(C(O)C(=O)O)cc4)cc3C)cc2C(=O)N(C)c2cccnc21,IIIB,,p24,0.01–0.05 µM
CCC(=O)c1cn(S(=O)(=O)c2ccc(CC)cc2)c2cc(C)ccc12,IIIB,,syncytia / visual reading,4 µg/mL
Cc1nc2ccc(Br)cc2c(-c2ccc(Cl)cc2)c1[C@H](OC(C)C)C(=O)O,,,luciferase / reporter gene,<20 µM
O=C(O)C/C(=C/C(=O)NCCCC[C@H](NC(=O)OCc1ccccc1)C(=O)N[C@@H](CCCCNC(=O)/C=C(/CC(=O)O)C(=O)O)C(=O)OCc1ccccc1)C(=O)O,IIIB,,p24,10 µM
C/C(=N\NC(=O)c1ccccc1)c1cn(S(=O)(=O)c2ccc(Cl)cc2)c2ccc([N+](=O)[O-])cc12,IIIB,,syncytia / visual reading,7.27 µg/mL
CCN1c2ncc(CCOc3ccc(C(=O)O)c4c3CCN(C(=O)N(C)C)C4)cc2C(=O)N(C)c2cccnc21,WT,,p24,<0.1 µM
Cc1nc2ccc(Cl)cc2c(-c2ccc(C(C)(F)F)cc2)c1C(OC(C)C)C(=O)O,,,luciferase / reporter gene,<20 µM
C.NCCCCN(Cc1nc2ccccc2[nH]1)C1CCCn2ccnc21,IIIB,,syncytia,0.139 µM
O=c1cc(-c2cccc3c2Sc2ccccc2S3)oc(N2CCOCC2)c1,RT-L74V M184V,,cytopathic effect / XTT,5.2 µM
NCCCC[C@H](NC(=O)OCc1ccccc1)C(=O)N[C@@H](CCCCN)C(=O)OCc1ccccc1,IIIB,,p24,500 µM
COC(=O)CCc1cccnc1CN(C)Cc1nc2ccccc2[nH]1,IIIB,,syncytia,15.5 µM

The last 5 rows once more:

| smiles | strain or isolate | changes | read by | result |
|---|---|---|---|---|
| Cc1nc2ccc(Cl)cc2c(-c2ccc(C(C)(F)F)cc2)c1C(OC(C)C)C(=O)O |  |  | luciferase / reporter gene | <20 µM |
| C.NCCCCN(Cc1nc2ccccc2[nH]1)C1CCCn2ccnc21 | IIIB |  | syncytia | 0.139 µM |
| O=c1cc(-c2cccc3c2Sc2ccccc2S3)oc(N2CCOCC2)c1 | RT-L74V M184V |  | cytopathic effect / XTT | 5.2 µM |
| NCCCC[C@H](NC(=O)OCc1ccccc1)C(=O)N[C@@H](CCCCN)C(=O)OCc1ccccc1 | IIIB |  | p24 | 500 µM |
| COC(=O)CCc1cccnc1CN(C)Cc1nc2ccccc2[nH]1 | IIIB |  | syncytia | 15.5 µM |

a–b is a range or a potency band. Neighbouring rows are from separate reports. Blank or dashed fields: not listed here.